Results of unrelated studies side by side (data: NIAID ChemDB).

Shared fields: growth or infection tests; agent: Herpes simplex virus 1; measure: inhibition

Rows are shuffled and stem from different studies.

structure | cell line | strain or isolate | dose | method | result
Clc1ncnc2nc(-c3cscn3)[nH]c12 | VERO | - | 100 µg/mL | plaque count | 0%
CSC(=Nc1ccc(Oc2ccc(/C=C(/Nc3ccccc3)SC)cc2)cc1)Nc1ccccc1 | VERO | - | 5 µM | plaque count | 0%
Cc1ccc(Cn2cnc(=N)c3[nH]cnc32)cc1 | BSC-1 | - | 50 µg/mL | plaque count | 0%
C/C=C/c1cn([C@H]2C[C@H](O)[C@@H](CO)O2)c(=O)[nH]c1=O | VERO | C42 | 10 µM | plaque count | 93%
O=S(=O)(c1ccc(OCc2ccc(Br)cc2)cc1)c1ccc(OCc2ccc(Br)cc2)cc1 | VERO | - | 30 µM | plaque count | >50%
N=c1ncn(CC2CCCCC2)c2nc[nH]c12 | BSC-1 | - | 12 µg/mL | plaque count | 0%
S=C(NCCc1ccccc1)Nc1ccc(Oc2ccc(NC(=S)NCCc3ccccc3)cc2)cc1 | VERO | - | 30 µM | plaque count | <50%
O=c1[nH]c(=O)n([C@H]2C[C@H](O)[C@@H](CO)O2)cc1/C=C/Br | HEP-2 | - | 0.01 µg/mL | cytopathic effect | ≥25%
Cc1cccc(Cn2cnc(=N)c3[nH]cnc32)c1 | BSC-1 | - | 50 µg/mL | plaque count | 9%
Nc1ncnc2c1ncn2[C@@H]1O[C@H](CO)[C@@H](O)[C@@H]1O | HL | VL8737 | 1 µg/mL | virus yield | 74%
Cc1ccc(NC(=S)Nc2ccc(Cl)cc2)cc1NC(=S)Nc1ccc(Cl)cc1 | VERO | - | 30 µM | plaque count | <50%
Nc1nc2c(ncn2COC(CO)CO)c(=O)[nH]1 | HEP-2 | - | 0.01 µg/mL | cytopathic effect | ≥25%
CSC(=Nc1ccc([N+](=O)[O-])cc1)Nc1ccc(Oc2ccc(/C=C(/Nc3ccc([N+](=O)[O-])cc3)SC)cc2)cc1 | VERO | - | 30 µM | plaque count | <50%
C/C=C/c1cn([C@@H]2O[C@H](CO)[C@@H](O)[C@@H]2O)c(=O)[nH]c1=O | VERO | C42 | 100 µM | plaque count | 0%
O=S(=O)(c1ccc(OCc2ccc(Cl)cc2)cc1)c1ccc(OCc2ccc(Cl)cc2)cc1 | VERO | - | 5 µM | plaque count | <50%
N=c1ncn(Cc2cccc([N+](=O)[O-])c2)c2nc[nH]c12 | BSC-1 | - | 25 µg/mL | plaque count | 0%
O=c1[nH]c(=O)n([C@@H]2O[C@H](CO)[C@@H](O)[C@@H]2F)cc1I | VERO | - | 0.01 µg/mL | cytopathic effect | ≥25%
O=[N+]([O-])c1ccc(NC(=S)Nc2ccc(Oc3ccc(NC(=S)Nc4ccc([N+](=O)[O-])cc4)cc3)cc2)cc1 | VERO | - | 30 µM | plaque count | <50%
CCn1cnc(=N)c2[nH]cnc21 | BSC-1 | - | 12 µg/mL | plaque count | 0%
Nc1nc2c(ncn2COC(CO)CO)c(=O)[nH]1 | WI-38 | KOS mutant PFA-R5 | 1.5 µM | plaque count | 90%
O=c1[nH]c(=O)n([C@H]2C[C@H](O)[C@@H](CO)O2)cc1I | PRK | KOS | 0.2 µg/mL | cytopathic effect | ≥25%

Repeating the first 2 entries:

| structure | cell line | strain or isolate | dose | method | result |
|---|---|---|---|---|---|
| Clc1ncnc2nc(-c3cscn3)[nH]c12 | VERO | - | 100 µg/mL | plaque count | 0% |
| CSC(=Nc1ccc(Oc2ccc(/C=C(/Nc3ccccc3)SC)cc2)cc1)Nc1ccccc1 | VERO | - | 5 µM | plaque count | 0% |

Blank or dashed fields: not listed here. Inhibition is in % at the dose shown (toxicity tests: loss of growth or viability).